Values from PubChem BioAssay AID624099 (ICCB-Longwood, 2012).

Screen: 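Knock-downs relieving repression by E2 of an HPV18 LCR luciferase reporter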 (primary screen)
System: human C33A cervical carcinoma cells (HPV-negative) stably expressing BPV1 E2 and an HPV18 LCR luciferase reporter
Reagent: siRNA pool against human genes, 40 nM
Time to read-out: 72 h
Detection: 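Per-well luciferase luminescence, z-scored on each plate against the plate mean and SD with control wells left out, then averaged across three replicate plates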
Reading the numbers: mean z-score and z-score: higher = stronger reporter signal, weaker E2 silencing
Rule for the call: 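Mean z ≥ 2 together with z ≥ 2 in two or more of the three replicates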
Shown is a random part of about 21,000 reagents. 497 of all reagents (2.4%) count as active. 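Higher z means weaker E2 silencing; only reporter increases were scored, and knock-downs that hurt cell survival may mask genuine repressor factors.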

RTN1 [SID134318315] — mean z-score = 0.44; z-score, replicate A = 0.34; z-score, replicate B = 0.48; z-score, replicate C = 0.51; Outcome = inactive
PUS7L [SID134318815] — mean z-score = -1.24; z-score, replicate A = -1.46; z-score, replicate B = -1.2; z-score, replicate C = -1.06; Outcome = inactive
MAGEE2 [SID134319834] — mean z-score = -1.56; z-score, replicate A = -1.84; z-score, replicate B = -1.19; z-score, replicate C = -1.64; Outcome = inactive
JSRP1 [SID134324895] — mean z-score = -0.79; z-score, replicate A = -0.65; z-score, replicate B = -1; z-score, replicate C = -0.72; Outcome = inactive

Continued; the last 2 above are carried over.
MAGEE2 [SID134319834] — mean z-score = -1.56; z-score, replicate A = -1.84; z-score, replicate B = -1.19; z-score, replicate C = -1.64; Outcome = inactive
JSRP1 [SID134324895] — mean z-score = -0.79; z-score, replicate A = -0.65; z-score, replicate B = -1; z-score, replicate C = -0.72; Outcome = inactive
SGSM3 [SID134322193] — mean z-score = 0.14; z-score, replicate A = 0.18; z-score, replicate B = 0.13; z-score, replicate C = 0.1; Outcome = inactive
FGB [SID134312838] — mean z-score = -0.28; z-score, replicate A = -0.55; z-score, replicate B = -0.11; z-score, replicate C = -0.18; Outcome = inactive
RPL31 [SID134317806] — mean z-score = -1.94; z-score, replicate A = -1.95; z-score, replicate B = -2.01; z-score, replicate C = -1.86; Outcome = inactive
DAZL [SID134315601] — mean z-score = -0.48; z-score, replicate A = -0.46; z-score, replicate B = -0.35; z-score, replicate C = -0.63; Outcome = inactive
OXA1L [SID134316957] — mean z-score = 0.1; z-score, replicate A = 0.17; z-score, replicate B = 0.02; z-score, replicate C = 0.12; Outcome = inactive
CIC [SID134319236] — mean z-score = 0.96; z-score, replicate A = 0.94; z-score, replicate B = 0.79; z-score, replicate C = 1.13; Outcome = inactive
LOC392164 (retired record) [SID134327732] — mean z-score = 0.14; z-score, replicate A = -0.24; z-score, replicate B = 0.41; z-score, replicate C = 0.26; Outcome = inactive
MAP3K21 [SID56478769] — mean z-score = -0.15; z-score, replicate A = -0.03; z-score, replicate B = 0.16; z-score, replicate C = -0.59; Outcome = inactive
